# Earlier results in publication PMC9862026, “In Vivo Toxicity, Redox-Modulating Capacity and Intestinal Permeability of Novel Aroylhydrazone Derivatives as Anti-Tuberculosis Agents” (Pharmaceutics, 2022).
# Where two headings read alike, the source gives them in different places.
# System: HEK-293T
# Conditions: HEK-293T vs M. tuberculosis MIC, cited from earlier work
SMILES,SI (selective index) (ref [23]),SI (selective index) (ref [22])
"COc1cc(C=NNC(=O)c2snnc2C)ccc1O [3a, N′-[(4-hydroxy-3-methoxyphenyl)methylidene]-4-methyl-1,2,3-thiadiazole-5-carbohydrazide]",3516,–
"COc1ccc2[nH]cc(C=NNC(=O)c3ccco3)c2c1 [3b, N′-[(5-methoxy-1H-indol-3-yl)methylidene]furan-2-carbohydrazide]",–,633.49
